Anti-infective test results gathered from many reports (values: NIAID ChemDB through PubChem).

Common to all: whole-cell or culture tests; species: Mycobacterium tuberculosis

Inhibition is in % at the dose shown (toxicity tests: loss of growth or viability). ECn is the concentration giving n% inhibition of infection, replication or growth. Two numbers with a dash give a range or band. MIC50, MIC90 and the like: level of inhibition, or share of isolates inhibited. An empty or dashed field is not shown. MIC bound: limit read from a one-dose screen. Conditions beyond the fields shown may differ between rows.

compound,strain or isolate,mutations,cells,method,setting,measure,dose,result
CC(=O)OCC1=CC(=O)O[C@@H]1C/C=C(/CC/C=C(\C)CCC1=C(C)CCCC1(C)C)COC(C)=O,,,,broth dilution,,MIC90,,26 µg/mL
CN(C)CC=C(c1ccc(Br)cc1)c1ccc(-c2ccc(Br)cc2)cc1,H37Rv,,,,,MIC,,8.5 µg/mL
Cc1ccc([C@H]2C(c3ccc(Cl)cc3)=NO[C@@]23CN([C@H](C)c2ccccc2)C/C(=C\c2cccc(C)c2)[C@@]32ON=C(c3ccc(Cl)cc3)O2)cc1,H37Rv,,,,,MIC,,8.75 µM
O=C(Oc1ccc(Br)cc1C(=O)Nc1ccc(C(F)(F)F)cc1)c1ccccc1,Praha 1,,,broth dilution,14 d,MIC,,1 µM
COc1c2c(cc3oc(=O)ccc13)OC(C)(C)C=C2,,,,,,MIC,,>200 µg/mL
NNC(=O)c1ccncc1,H37Rv,,,resazurin,,MIC,,0.02 µg/mL
C[C@H](c1ccccc1)N1C/C(=C/c2ccc(Cl)cc2Cl)[C@]2(ON=C(c3ccc(Cl)cc3)O2)C2(C1)ON=C(c1ccc(Cl)cc1)[C@H]2c1ccc(Cl)cc1Cl,MDR-TB,,,,,MIC,,0.95 µM
CC1(C)C(=O)NCCN1C(=O)CCCC(=O)O,CDC1551,,,broth dilution,,MIC90,,43 µg/mL
CCN(CC)CCNc1ccc(OC)c2sc3ccccc3c(=O)c12,H37Rv,,,BACTEC,,MIC bound,,≤12.5 µg/mL
CN(C)CC=C(c1ccccc1)c1ccc(-c2ccc(Br)cc2)cc1,ALI 258,,,,,MIC,,≤5 µg/mL
NCC[C@H](O)C(=O)N[C@@H]1C[C@H](N)[C@@H](O[C@H]2O[C@H](CN)[C@@H](O)[C@H](O)[C@H]2O)[C@H](O)[C@H]1O[C@H]1O[C@H](CO)[C@@H](O)[C@H](N)[C@H]1O,H37Rv,KatG W149R isoniazid-resistant,,broth dilution,,MIC99,,0.5 µg/mL
O=C1NC2C=C(Cl)C(Cl)=CC2c2ccc(Cl)cc21,H37Rv,,,resazurin,,inhibition,6.25 µg/mL,10%
NC1CCN(CCCCn2ccc(Nc3ccc(CNC4CNC4)cn3)nc2=O)CC1,H37Rv,,,turbidity,,EC50,,0.5–1 µM
NNC(=O)c1ccncc1,MDR-TB,,,,,MIC,,11.38 µM
CCCCCCCCCCCCCCC[C@H]1CC=CC(=O)O1,H37Rv,,,,,MIC,,>128 µg/mL
O=C1CC[C@H](O)c2ccccc21,90-221387,,,,,MIC,,6.25 µg/mL
C[C@H](c1ccccc1)N1CC(=Cc2cccc3ccccc23)[C@]2(ON=C(c3ccc(Cl)cc3)O2)C2(C1)ON=C(c1ccc(Cl)cc1)[C@H]2c1cccc2ccccc12,H37Rv,,,,,MIC,,1.98 µM
O=C(Oc1cc(Cl)ccc1C(=O)Nc1cccc(Br)c1)c1ccccc1,331/88 (H37Rv),,,broth dilution,14 d,MIC,,4 µM
NNC(=O)c1ccncc1,H37Rv,,,broth dilution,,MIC99,,<0.05 µg/mL
NNc1cc2c(nn1)CCN(C(=O)c1ccccc1)C2,H37Rv,,,resazurin,,MIC bound,,>6.25 µg/mL
CNCCCOCc1ccc(Nc2ccn(CCCCN3CCC(N)CC3)c(=O)n2)nc1,H37Rv,,,turbidity,,EC50,,≥1 µM
CCCCCCCCCCCCCCC[C@H](O)CCCC[C@H]1CC=CC(=O)O1,H37Rv,,VERO,fluorescence,,inhibition,128 µg/mL,94.7%
N#CC(Nc1ccc(F)cc1F)c1ccc(OCc2nc3ccccc3[nH]2)cc1,H37Rv,,,resazurin,,inhibition,6.25 µg/mL,100%
CCCCCCCCCCCCCCC[C@H](O)CCC[C@H](O)C[C@H]1CC=CC(=O)O1,H37Rv,,,,,MIC,,48.23 µg/mL
N#CC(Nc1cccc(F)c1)c1ccc(OCc2nc3ccccc3[nH]2)cc1,H37Rv,,,resazurin,,MIC,,3.12 µg/mL
COc1cc(C(O)(CCN(C)C)C(c2cc(-c3cccc(Cl)c3)cnc2OC)c2cccc(OC)c2F)cc(OC)n1,H37Rv,,,fluorescence,,EC90,,8.34 µM
CNC(=O)Oc1cccc(NC(=S)SC)c1,H37Rv,,,BACTEC,,MIC bound,,≤128 µg/mL
O=Cc1cc2c(cc1O)[nH]c1ccccc12,,,,,,MIC,,200 µg/mL
O=c1[nH]c2ccccc2c(=O)n2cccc12,H37Rv,,,BACTEC,,inhibition,12.5 µg/mL,16%
NC1CCN(CCCCn2ccc(Nc3ccc(CN4CCC(N)CC4)cn3)nc2=O)CC1,H37Rv,,,turbidity,,EC50,,<0.5 µM
O=C(O)[C@]1(O)C=C(F)[C@@H](O)[C@H](O)C1,,,,broth dilution,,MIC90,,10 µg/mL
CN(C)C/C=C(/c1ccc(Br)cc1)c1ccc(-c2ccc(Br)cc2)cc1,H37Ra,,,,,MIC,,34 µg/mL
C/C=C(\C)c1c(Br)c(O)c(C)c2c1Oc1cc(O)c(Br)c(C)c1C(=O)O2,H37Ra,,,resazurin / visual reading,,MIC,,100 µg/mL
O=C(Oc1ccc(Cl)cc1C(=O)Nc1ccc(Cl)c(Cl)c1)c1ccccc1,7357/1998,,,broth dilution,14 d,MIC,,0.5 µM
CN(C)C/C=C(\c1ccc(N)cc1)c1ccc(-c2ccc(Br)cc2)cc1,ALI 536,,,,,MIC,,≤5 µg/mL
Cc1c(N)nc([C@H](CC(N)=O)NC[C@H](N)C(N)=O)nc1C(=O)N[C@H](C(=O)N[C@H](C)[C@@H](O)[C@H](C)C(=O)N[C@H](C(=O)NCCc1nc(-c2nc(C(=O)NCCC[S+](C)C)cs2)cs1)[C@@H](C)O)C(O[C@@H]1O[C@@H](CO)[C@@H](O)[C@H](O)[C@@H]1O[C@H]1O[C@H](CO)[C@@H](O)[C@H](OC(N)=O)[C@@H]1O)c1cnc[nH]1,,,,broth dilution,,EC50,,0.1 µg/mL
O=C(Oc1ccc(Cl)cc1C(=O)Nc1ccc(C(F)(F)F)cc1)c1ccccc1,Praha 131,,,broth dilution,21 d,MIC,,0.5 µM
COc1cccc2c1C(=O)c1c(O)c3c(c(O)c1C2=O)C[C@@](O)(c1csc(N)n1)C[C@@H]3OC1CC(N)C(O)C(C)O1.Cl.Cl,H37Rv,,,BACTEC,,MIC bound,,>12.5 µg/mL
NCc1ccc(Nc2ccn(CCCCN3CCC(N)CC3)c(=O)n2)nc1,H37Rv,,,turbidity,,EC50,,≥1 µM
CCCCCCCCCCCCCCC[C@H]1CC=CC(=O)N1,H37Rv,,,fluorescence,,inhibition,128 µg/mL,74.7%
Cc1csc(=N)n1/N=C/c1cccnc1,H37Rv,,,BACTEC,,MIC bound,,>6.25 µg/mL
CC(C)c1ccc(C2=NO[C@@]3(O2)C(=Cc2cccc4ccccc24)CN([C@H](C)c2ccccc2)CC32ON=C(c3ccc(C(C)C)cc3)[C@H]2c2cccc3ccccc23)cc1,H37Rv,,,,,MIC,,15.59 µM
O=C(Oc1cc(Cl)ccc1C(=O)Nc1cccc(Cl)c1)c1ccccc1,331/88 (H37Rv),,,broth dilution,14 d,MIC,,4 µM
COc1cc(C(O)(CCN(C)C)C(c2cc(-c3cccnc3)cnc2OC)c2cccc(OC)c2F)cc(OC)n1,H37Rv,,,fluorescence,,EC90,,17.11 µM
CO[C@H]1/C=C/O[C@@]2(C)Oc3c(C)c(O)c4c(O)c(c(/C=N/N5CCN(C)CC5)c(O)c4c3C2=O)NC(=O)/C(C)=C\C=C\[C@H](C)[C@H](O)[C@@H](C)[C@@H](O)[C@@H](C)[C@H](OC(C)=O)[C@@H]1C,38 strains,,,,,MIC90,,>100 µg/mL
C[C@H](c1ccccc1)N1C/C(=C\c2ccccc2Cl)[C@@]2(ON=C(c3ccc(Cl)cc3)O2)[C@@]2(C1)ON=C(c1ccc(Cl)cc1)[C@@H]2c1ccccc1Cl,H37Rv,,,,,MIC,,4.14 µM
Nc1nc2c(C(=O)c3cccs3)nnn2c2cccc(Cl)c12,H37Rv,,,BACTEC,,MIC bound,,>12.5 µg/mL
CN(C)C/C=C(\c1ccc(O)cc1)c1ccc(-c2ccccc2)cc1,H37Rv,,,,,MIC,,6 µg/mL
CC(=O)N=c1ccc2nc3c(cc(N)c4ccccc43)oc-2c1.Cl,H37Rv,,,BACTEC,,inhibition,12.5 µg/mL,17%
CCCCCCCCCCCCCCC[C@H](O)CC[C@@H](O)CCC[C@H]1CC=CC(=O)O1,H37Rv,,VERO,fluorescence,,inhibition,128 µg/mL,98.3%
CN(C)c1ccc2nc3ccc(N)cc3[n+](-c3ccccc3)c2c1.[Cl-],H37Rv,,,BACTEC,,MIC,,0.8 µg/mL
CCCCCCCCCCCCCCC[C@H](O)C[C@H]1CC=CC(=O)O1,H37Rv,,,,,MIC,,35.57 µg/mL
O=CNc1ccc2nc3ccc(NC=O)cc3[n+](-c3ccccc3)c2c1.[Cl-],H37Rv,,,BACTEC,,MIC bound,,>12.5 µg/mL
CN(C)C/C=C(/c1ccccc1)c1ccc(-c2ccc(Br)cc2)cc1,ALI 3342,,,,,MIC,,10 µg/mL
CCC(=O)C(N)(O)C(=O)O,,,,broth dilution,,MIC90,,0.21 µg/mL
O=C1OCC2(C(=O)OCc3ccccc3)C(=O)C(=O)N(C3CCCCC3)C12,H37Rv,,,BACTEC,,inhibition,12.5 µg/mL,13%
C[n+]1cc2c(cn3c4ccccc4ccc23)c2ccccc21.[I-],H37Ra,,,resazurin / visual reading,,MIC,,1.5 µg/mL
NC(=S)NN=C1CCC(=NNC(N)=S)CC1,H37Rv,,,BACTEC,,MIC bound,,>12.5 µg/mL
C=C(C)/C=C/[C@]12C[C@H](C)[C@H]3CC[C@](C)(NC=O)[C@@H](CC[C@H]1C)[C@@H]32,H37Rv,,,,,inhibition,64 µg/mL,100%
N#CC(Nc1ccccc1Cl)c1ccc(OCc2nc3ccccc3[nH]2)cc1,H37Rv,,,resazurin,,inhibition,6.25 µg/mL,91%
CC(C)c1ccc(C2=NOC3(O2)[C@@]2(CN([C@H](C)c4ccccc4)C[C@]34ON=C(c3ccc(C(C)C)cc3)[C@H]4c3ccc(Cl)cc3Cl)ON=C(c3ccc(C(C)C)cc3)[C@H]2c2ccc(Cl)cc2Cl)cc1,H37Rv,,,,,MIC,,6.24 µM
COc1cc(C(O)(CCN(C)C)C(c2cc(-c3ccccc3C#N)cnc2OC)c2cccc(OC)c2F)cc(OC)n1,H37Rv,,,fluorescence,,EC90,,16.83 µM
O=C1C(=Cc2ccc(F)cc2)C(=O)c2ccccc21,H37Rv,,,BACTEC,,MIC bound,,>12.5 µg/mL
C[C@H](c1ccccc1)N1C/C(=C\c2ccc(Cl)cc2)C(=O)/C(=C/c2ccc(Cl)cc2)C1,H37Rv,,,,,MIC,,27.88 µM
O=C1C(Cl)=C(NSCCSNC2=C(Cl)C(=O)c3ccccc3C2=O)C(=O)c2ccccc21,H37Rv,,,BACTEC,,MIC bound,,>12.5 µg/mL
COc1cc(C(O)(CCN(C)C)C(c2cc(Br)cnc2OC)c2cccc(OC)c2F)cc(OC)n1,H37Rv,,,fluorescence,,EC90,,10.77 µM
Nc1c(Br)cc2snc3c2c1C(=O)c1ccccc1-3,H37Rv,,,BACTEC,,inhibition,12.5 µg/mL,93%
N#CC(Nc1ccc(F)cc1)c1ccc(OCc2nc3ccccc3[nH]2)cc1,H37Rv,,,resazurin,,inhibition,6.25 µg/mL,96%
CCn1cc(C(=O)O)c(=O)c2cc(F)c(N3CCN(C)CC3)cc21,21 strains,,,,,MIC50,,4 µg/mL
Cc1[nH]ccc(=O)c1OC(=O)C12CC3CC(CC(C3)C1)C2,H37Rv,,,BACTEC,,inhibition,12.5 µg/mL,-5%
[N-]=[N+]=CC(=O)OC[C@H](N)C(=O)O,,,,broth dilution,,EC50,,<1 µg/mL
CC(=O)NC(=O)NC1=NCCC(=O)N1CCc1c[nH]c2ccccc12,H37Rv,,,BACTEC,,MIC bound,,>12.5 µg/mL
C=CC(C)(C)c1c2c(c(OC)c3ccc(=O)oc13)C=CC(C)(C)O2,,,,,,MIC,,50 µg/mL
COc1cc2c(c(NC(C)CCCN=C(N)NC(N)=NC(C)C)c1)NCCC2,,,,resazurin,,inhibition,6.25 µg/mL,95%
CN[C@@H]1[C@H](O[C@H]2[C@H](O[C@H]3[C@H](O)[C@@H](O)[C@H](N=C(N)N)[C@@H](O)[C@@H]3N=C(N)N)O[C@@H](C)[C@]2(O)C=O)O[C@@H](CO)[C@H](O)[C@H]1O,38 strains,,,,,MIC50,,0.39 µg/mL
CC(=O)/C(C)=N/NC(=O)c1ccccn1,H37Rv,,,BACTEC,,MIC bound,,>12.5 µg/mL
C/C=C/C1=CC=C/C(=C2\C(=O)CNC2=O)O1,H37Ra,,,resazurin / visual reading,,MIC,,3.1 µg/mL